What was measured:
Mtb PrcAB-OG = Mtb PrcAB-OG (Mycobacterium tuberculosis, UniProt P9WHT9); conditions: for kinact/K: Mtb PrcAB-OG, corrected for substrate competition, error propagated; for KI (inactivation): read-out: K (concentration of inactivator that yields a rate of inactivation equal to ½ kinact)
Mtb proteasome = Mtb proteasome (Mycobacterium tuberculosis, UniProt P9WHT9)
M. bovis BCG = experiment: Mycobactericidal activity against BCG (CFU); conditions: alone and with DETA-NO 50 μM, 4 days
Procedure: FIGS. 5A-B illustrate the killing of mycobacteria by oxathiazol-2-ones in synergy with NO. FIG. 5A is a graph of the killing of BCG by GL5, GL1, and GL3 was concentration-dependent and augmented following exposure to a sub-lethal concentration of NO donated by DETA-NO. BCG at an initial number of 2.5×10^6 CFU/mL (arrow) in Sauton's medium was treated with (open bars) and without (solid bars) DETA-NO (50 μM) and with the indicated oxathiazol-2-one at 10, 25, or 50 μM for four days. Bacteria were then serially diluted in saline and plated for enumeration of surviving CFU. DETA-NO at this concentration prevented replication but caused no killing. […] Mtb was exposed to 100 μM DETANO (open bars) or 100 μM DETA (solid bars) overnight prior to addition of GL5 at 25 μM or 50 μM or to GL6 (50 μM) as a control. Surviving bacteria were plated 4 days after addition of oxathiazol-2-one. Initial inocula are indicated. DETA-NO at this concentration prevented replication but caused little or no killing. The limit of detection was 4 log10 CFU/ml […] Mid-log phase cultures (A560 ? 0.8-1.0) were diluted to 0.05-0.1 (A580) and quantified by CFU. Mycobacteria were incubated under indicated conditions in 96 well plates in 200 μl, then serially diluted in PBS with 0.02% Tween 80, pH 7.2 and plated for CFU on Middlebrook 7H11 agar plates with 10% Middlebrook OADC enrichment. […]

Sequences of proteins named here, by UniProt entry; tags and fusion partners are left off. A line that says so, or that is headed by a name, gives the form on record, which may keep a tag or linker. Residues count along the entry.
UniProt P9WHT9, 58-291 limits assumed: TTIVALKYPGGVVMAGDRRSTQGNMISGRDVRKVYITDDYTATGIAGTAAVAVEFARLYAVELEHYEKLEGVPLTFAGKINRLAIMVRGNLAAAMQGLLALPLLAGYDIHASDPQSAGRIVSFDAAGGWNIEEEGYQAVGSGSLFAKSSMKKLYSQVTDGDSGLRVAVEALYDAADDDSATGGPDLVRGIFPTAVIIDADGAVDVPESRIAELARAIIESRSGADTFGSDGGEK
UniProt P9WHU1, 10-248 with tags or gaps partner limits assumed: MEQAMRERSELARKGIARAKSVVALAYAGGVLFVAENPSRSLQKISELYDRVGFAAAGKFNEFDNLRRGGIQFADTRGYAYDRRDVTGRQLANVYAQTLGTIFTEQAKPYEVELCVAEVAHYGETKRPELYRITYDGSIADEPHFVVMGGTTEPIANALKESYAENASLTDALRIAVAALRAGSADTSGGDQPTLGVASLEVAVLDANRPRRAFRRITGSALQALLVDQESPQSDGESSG

Structure (SMILES)	Hill coefficient (Mtb PrcAB-OG) (Mtb PrcAB-OG)	effect of substrate concentration on rate of inactivation (Mtb PrcAB-OG)	kinact (Mtb PrcAB-OG) [s⁻¹]	kinact/K (Mtb PrcAB-OG)	KI (inactivation) (Mtb PrcAB-OG) [µM]	activity recovered after dialysis (Mtb proteasome)	killing of BCG (M. bovis BCG)	activity recovered after dilution (Mtb proteasome)
O=c1oc(-c2cc3c(s2)CCCC3)ns1	1.9	Increasing substrate concentration reduced the rate of proteasome inactivation	0.020 ± 0.002	2898 ± 413^b M^−1s^−1	6.9	did not restore the activity	able to kill BCG	–
O=c1oc(-c2cc3ccccc3s2)ns1	2.3	–	0.018 ± 0.001	1250 ± 111^b M^−1s^−1	14.4	–	able to kill BCG	no activity was recovered

From patent US20110118274A1, “PROTEASOME INHIBITORS AND THEIR USE IN TREATING PATHOGEN INFECTION AND CANCER” (CORNELL RESEARCH FOUNDATION, INC., priority 2007, published 2011)
